Source: patent US20190071489A1

Biological target: EBOV GP (Mayinga variant) (Ebola virus (EBOV), Mayinga variant) (UniProt Q05320)
Test: cell-based or functional assay

Substance | IC50 (µg/mL), neutralization of EBOV GP-pseudotyped lentivirus on HEK293T [µg/mL] | IC90 (µg/mL), neutralization of EBOV GP-pseudotyped lentivirus on HEK293T [µg/mL] | IC99 (µg/mL), neutralization of EBOV GP-pseudotyped lentivirus on HEK293T [µg/mL]
EVB114 (antibody) | 0.09 | 0.71 | 7.19
KZ52 (antibody) | 0.06 | 17.2 | > 1000
